Measured values from several laboratories, pooled; numbers as filed in NIAID ChemDB.

Shared fields: tests in culture; agent: Aspergillus fumigatus; measure: zone

Zones are inhibition diameters on agar. Conditions beyond the fields shown may differ between rows. Blank or dashed fields: not listed here.

smiles | strain or isolate | read by | dose | value
CCC(C)CCCCCCCCCCC(=O)N[C@H]1C[C@@H](O)[C@@H](OC)NC(=O)C2[C@@H](O)[C@@H](C)CN2C(=O)C(CO)NC(=O)C([C@H](O)C(O)c2ccc(O)cc2)NC(=O)NC(=O)[C@@H]2C[C@@H](O)CN2C(=O)[C@H]([C@@H](C)O)NC1=O | AF-1 | agar | 5 mg/mL | 35 mm
CN(C)/C=C/C(=O)c1nn(-c2ccccc2)cc1-c1ccc([N+](=O)[O-])cc1 | - | agar diffusion / agar | 5 mg/mL | 9 mm
COc1ccc(Cc2ccc(OC)c(-c3nnc4sc(-c5ccc([N+](=O)[O-])cc5)nn34)c2)cc1-c1nnc2sc(-c3ccc([N+](=O)[O-])cc3)nn12 | HIC 6094 | - | 100 µg/disc | 25 mm
Cc1ccc(-n2cc(-c3ccc([N+](=O)[O-])cc3)c(-c3ccon3)n2)cc1 | - | agar diffusion / agar | 2.5 mg/mL | 14 mm
Nc1ccccc1C(=O)Nc1ccc(F)cc1 | RCMB 02003 | agar diffusion | 25 µg/mL | 11.8 mm
CCC(C)CCCCCCCCCCC(=O)N[C@H]1C[C@@H](O)[C@@H](N=[N+]=[N-])NC(=O)C2[C@@H](O)[C@@H](C)CN2C(=O)C(CO)NC(=O)C([C@H](O)C(N=[N+]=[N-])c2ccc(O)cc2)NC(=O)NC(=O)[C@@H]2C[C@@H](O)CN2C(=O)[C@H]([C@@H](C)O)NC1=O | AF-1 | agar | 2 mg/mL | 19 mm
N#Cc1ccc(Nc2nc(Oc3cccc4cccnc34)nc(N3CCN(c4ccccc4)CC3)n2)cc1C(F)(F)F | MTCC 343 | agar diffusion / agar | 100 µg/disc | 18 mm
COc1ccc(NC(=O)c2ccccc2N)cc1 | RCMB 02003 | agar diffusion | 25 µg/mL | 19.7 mm
COc1ccc(-c2nn3c(-c4cc(Cc5ccc(OC)c(-c6nnc7sc(-c8ccc(OC)cc8)nn67)c5)ccc4OC)nnc3s2)cc1 | HIC 6094 | - | 100 µg/disc | 12 mm
COC(=O)N[C@H](C(=O)NN(CCC[C@@]1(Cc2ccccc2)C(=O)N(C2c3ccccc3C[C@H]2O)C[C@H]1O)Cc1ccc(Br)cc1)C(C)(C)C | RCMB 002003 | agar diffusion / agar | 10 mg/mL | 18.8 mm
CC(=O)C1=NN(c2ccccc2)C2=Nc3nccc(-c4nn(-c5ccccc5)cc4-c4ccc([N+](=O)[O-])cc4)c3C(=O)C12 | - | agar diffusion / agar | 1.25 mg/mL | 6 mm
N#Cc1ccc(Nc2nc(Oc3cccc4cccnc34)nc(N3CCN(c4ncccn4)CC3)n2)cc1C(F)(F)F | MTCC 343 | agar diffusion / agar | 100 µg/disc | 25 mm
Cc1[nH]c2ccc(OC(F)(F)F)cc2c1CNC(=O)CCc1c[nH]c2ccc(Cl)cc12 | NCIM 902 | - | 25 µg/mL | <10 mm
CCC(C)CCCCCCCCCCC(=O)N[C@H]1C[C@@H](O)[C@@H](NCCN2CCOCC2)NC(=O)C2[C@@H](O)[C@@H](C)CN2C(=O)C(CO)NC(=O)C([C@H](O)C(O)c2ccc(O)cc2)NC(=O)NC(=O)[C@@H]2C[C@@H](O)CN2C(=O)[C@H]([C@@H](C)O)NC1=O | AF-1 | agar | 5 mg/mL | 24 mm
COc1ccc(Cc2ccc(OC)c(-c3nnc4sc(-c5ccc(C)cc5)nn34)c2)cc1-c1nnc2sc(-c3ccc(C)cc3)nn12 | HIC 6094 | - | 100 µg/disc | 8 mm
Cc1ccc(-n2cc(-c3ccc([N+](=O)[O-])cc3)c(-c3ccn[nH]3)n2)cc1 | - | agar diffusion / agar | 1.25 mg/mL | 4 mm
C[C@@H]1[C@H](O)[C@@H](C)/C=C/C=C/C=C/C=C/C=C/C=C/C=C/[C@H](O[C@@H]2O[C@H](C)[C@@H](O)[C@H](N)[C@@H]2O)C[C@@H]2O[C@](O)(C[C@@H](O)C[C@@H](O)[C@H](O)CC[C@@H](O)C[C@@H](O)CC(=O)O[C@H]1C)C[C@H](O)[C@H]2C(=O)O | HIC 6094 | - | 100 µg/disc | 30 mm
CCOC(=O)C[C@H](O)C[C@H](O)CC[C@@H]1[C@@H]2C(=CCC[C@@H]2C(=O)O[C@H](C)CC)C=C[C@@H]1C | - | agar diffusion | 10 mg/disc | 0 mm
Cn1cc(CCC(=O)NCCCc2c[nH]c3ccc(Cl)cc23)c2cc(Cl)ccc21 | NCIM 902 | - | 25 µg/mL | <10 mm
COC(=O)N[C@H](C(=O)NN(CCC[C@@]1(Cc2ccccc2)C(=O)N(C2c3ccccc3C[C@H]2O)C[C@H]1O)Cc1ccc(-c2cccnc2)cc1)C(C)(C)C | RCMB 002003 | agar diffusion / agar | 10 mg/mL | 18.8 mm
CCC(C)CCCCCCCCCCC(=O)N[C@H]1C[C@@H](O)[C@@H](O)NC(=O)C2[C@@H](O)[C@@H](C)CN2C(=O)C(CO)NC(=O)C([C@H](O)C(O)c2ccc(O)cc2)NC(=O)NC(=O)[C@@H]2C[C@@H](O)CN2C(=O)[C@H]([C@@H](C)O)NC1=O | AF-1 | agar | 2 mg/mL | 35 mm
COC(=O)N[C@H](C(=O)NN(CC[C@@]1(Cc2ccccc2)C(=O)N(C2c3ccccc3C[C@H]2O)C[C@H]1O)Cc1ccc(-c2ccncc2)cc1)C(C)(C)C | RCMB 002003 | agar diffusion / agar | 10 mg/mL | 18.8 mm
CCC(C)CCCCCCCCCCC(=O)N[C@H]1C[C@@H](O)[C@@H]([n+]2cc[nH]c2)NC(=O)C2[C@@H](O)[C@@H](C)CN2C(=O)C(CO)NC(=O)C([C@H](O)C(O)c2ccc(O)cc2)NC(=O)NC(=O)[C@@H]2C[C@@H](O)CN2C(=O)[C@H]([C@@H](C)O)NC1=O | AF-1 | agar | 2 mg/mL | 24 mm
COC(=O)N[C@H](C(=O)NN(CC[C@@]1(Cc2ccccc2)C(=O)N(C2c3ccccc3C[C@H]2O)C[C@H]1O)Cc1ccc(-c2ccccn2)cc1)C(C)(C)C | RCMB 002003 | agar diffusion / agar | 10 mg/mL | 18.8 mm
O=C(CCc1c[nH]c2ccc(Cl)cc12)NCCCc1c[nH]c2ccc(OC(F)(F)F)cc12 | NCIM 902 | - | 25 µg/mL | <10 mm
CCN1CCN(c2nc(Nc3ccc(C#N)c(C(F)(F)F)c3)nc(Oc3cccc4cccnc34)n2)CC1 | MTCC 343 | agar diffusion / agar | 100 µg/disc | 20 mm
CCC(C)CCCCCCCCCCC(=O)N[C@H]1C[C@@H](O)[C@@H](Sc2ccccc2)NC(=O)C2[C@@H](O)[C@@H](C)CN2C(=O)C(CO)NC(=O)C([C@H](O)C(Sc2ccccc2)c2ccc(O)cc2)NC(=O)NC(=O)[C@@H]2C[C@@H](O)CN2C(=O)[C@H]([C@@H](C)O)NC1=O | AF-1 | agar | 5 mg/mL | 17 mm
COc1ccc(Cc2ccc(OC)c(-c3nnc4sc(-c5ccc(O)cc5)nn34)c2)cc1-c1nnc2sc(-c3ccc(O)cc3)nn12 | HIC 6094 | - | 100 µg/disc | 18 mm
Nc1ccccc1C(=O)Nc1ccc(CC(=O)O)cc1 | RCMB 02003 | agar diffusion | 25 µg/mL | 11.8 mm
CN1CCN(c2nc(Nc3ccc(C#N)c(C(F)(F)F)c3)nc(Oc3cccc4cccnc34)n2)CC1 | MTCC 343 | agar diffusion / agar | 100 µg/disc | 20 mm
O=C(c1cn2cnnc2nn1)c1nn(-c2ccccc2)cc1-c1ccc([N+](=O)[O-])cc1 | - | agar diffusion / agar | 1.25 mg/mL | 3 mm

Repeating the first 3 entries:

smiles | strain or isolate | read by | dose | value
CCC(C)CCCCCCCCCCC(=O)N[C@H]1C[C@@H](O)[C@@H](OC)NC(=O)C2[C@@H](O)[C@@H](C)CN2C(=O)C(CO)NC(=O)C([C@H](O)C(O)c2ccc(O)cc2)NC(=O)NC(=O)[C@@H]2C[C@@H](O)CN2C(=O)[C@H]([C@@H](C)O)NC1=O | AF-1 | agar | 5 mg/mL | 35 mm
CN(C)/C=C/C(=O)c1nn(-c2ccccc2)cc1-c1ccc([N+](=O)[O-])cc1 | - | agar diffusion / agar | 5 mg/mL | 9 mm
COc1ccc(Cc2ccc(OC)c(-c3nnc4sc(-c5ccc([N+](=O)[O-])cc5)nn34)c2)cc1-c1nnc2sc(-c3ccc([N+](=O)[O-])cc3)nn12 | HIC 6094 | - | 100 µg/disc | 25 mm